Compound potency records, mixed from different reports. Data source: NIAID ChemDB in PubChem.

Shared fields: tests in culture; species: Hepatitis B virus; endpoint: EC50

ECn: concentration that inhibits the pathogen or its effect by n%.

structure | strain or isolate | cell line | result
Nc1nc(N)c2ncn([C@H]3CO[C@@H](CO)O3)c2n1 | M550I | - | 65 µM
Nc1nccc2c1ncn2CCOCP(=O)(O)O | - | HB611 | <17.4 µM
C[C@@H](COc1cc(N)nc(N)n1)OCP(=O)(O)O | - | HEPAD79 | ~100 µg/mL
O=P(O)(O)COC(CO)Cn1cnc2c(=S)nc[nH]c21 | - | HB611 | >400 µM
C[C@H](COc1cc(N)nc(N)n1)OCP(=O)(O)O | - | HepAD38 | 1.2 µg/mL
Cc1nc(N)c2[nH]c(=S)n(CC(CO)OCP(=O)(O)O)c2n1 | - | HB611 | 32 µM
Nc1nc(=O)n([C@H]2O[C@@H](CO)C[C@H]2F)cc1F | - | 2.2.15 | >10 µM
C#C[C@@]1(CO)O[C@H](n2cnc3c(N)nc(N)nc32)C[C@H]1O | - | 2.2.15 | >35 µM
Cc1cn(CCOCP(=O)(O)O)c(=O)[nH]c1=O | - | HB611 | 200 µM
Nc1nc(N)c(Br)c(OCCOCP(=O)(O)O)n1 | - | HepAD38 | 3 µg/mL
Cc1cn(C[C@@H](CO)OCP(=O)(O)O)c(=O)[nH]c1=O | - | HB611 | >400 µM
O=c1[nH]c(=O)n(C2OC(CO)CC2F)cc1I | - | 2.2.15 | >50 µM
Cc1c(N)nc(N)nc1OCCOCP(=O)(O)O | - | HepAD38 | 0.9 µg/mL
O=c1[nH]c(=O)n([C@@H]2O[C@@H](CO)C[C@H]2F)cc1Br | - | 2.2.15 | >100 µM
O=c1[nH]c(=O)n(C[C@@H](CO)OCP(=O)(O)O)cc1F | - | HB611 | 200 µM
Nc1ccn([C@@H]2CS[C@H](CO)O2)c(=O)n1 | WILD TYPE | HepG2 | 0.01 µM
COCC(Cn1cnc2c(N)ncnc21)OCP(=O)(O)O | - | HB611 | 32 µM
O=c1[nH]cnc2c1ncn2[C@H]1O[C@@H](CO)C[C@H]1F | - | 2.2.15 | >10 µM
COc1ccc(Sc2nc(N)nc3c2ncn3CCOCP(=O)(OCC(F)(F)F)OCC(F)(F)F)cc1 | Mutation M552I | Huh7 | 2.6 µM
O=c1[nH]cnc2c1ncn2[C@@H]1O[C@@H](CO)C[C@@H]1F | - | 2.2.15 | >10 µM
Nc1ncnc2c1ncn2CCOCP(=O)(O)O | - | HepG2 | 0.34 µM
CNc1ncnc2c1ncn2[C@H]1O[C@@H](CO)C[C@H]1F | - | 2.2.15 | >10 µM
Nc1ccn([C@@H]2CS[C@H](CO)O2)c(=O)n1 | DUAL | - | >50 µM

A second listing of 3 rows from above:

Nc1nc(N)c2ncn([C@H]3CO[C@@H](CO)O3)c2n1 ; strain or isolate: M550I ; result: 65 µM
Nc1nc(N)c(Br)c(OCCOCP(=O)(O)O)n1 ; cell line: HepAD38 ; result: 3 µg/mL
Nc1ncnc2c1ncn2CCOCP(=O)(O)O ; cell line: HepG2 ; result: 0.34 µM

An empty or dashed field is not shown. Conditions beyond the fields shown may differ between rows.